In patent US20150174265A1, “REVERSIBLE MASKING OF PORE-FORMING PROTEINS FOR MACROMOLECULAR DELIVERY” (MIT, published 2015):

Experiments:
[1] = molecular target: T1, PFO containing an N-terminal avi tag (Clostridium perfringens); assay: yeast surface titration with avi-tagged PFO, flow cytometry
[2] = molecular target: T1, PFO containing an N-terminal avi tag; assay: yeast surface titration with avi-tagged PFO, flow cytometry, pH 5.5, curve-fit
[3] = molecular target: T1, PFO containing an N-terminal avi tag; assay: yeast surface titration with avi-tagged PFO, flow cytometry, pH 7.4, curve-fit
[4] = molecular target: T1, PFO containing an N-terminal avi tag; assay: yeast-surface titration against PFO (wild-type)
[5] = molecular target: T1, PFO containing an N-terminal avi tag; assay: yeast-surface titration against PFO (wild-type), pH 5.5
[6] = molecular target: T1, PFO containing an N-terminal avi tag; assay: yeast-surface titration against PFO (wild-type), pH 7.4

B1: Clone 2.2-12 (designed binder)
chain: ASDVPRDLEVVAATPTSLLISWRFPAYWGADSYRITYGETGGNSPVQEFTVPSSVSSATISGLKPGVDYTITVYAVTWCGFYYCHSRPTSINYRTEIDKPSQ
Q: Which “fold difference of KD between pH 7.4 and pH 5.5” value [1] does the source give for B1 here?
A: Its value is 10 fold.

B2: Clone 2.2-7 (designed binder)
chain: VSDVPRDLEVVAATPTSLLISWFNPHSCSYRITYGETGGNSPVQEFTVPASSTATISGLKPGVDYTITVYAVTWRCYSVPISINYRTEVDKPSQ
Q: Which Kd [2] does the source give for B2 here?
A: Its Kd is 108 nM.

Q: And the Kd [3]?
A: Its Kd is 6.7 nM.

B3: Clone 2.2.12F (designed binder)
chain: ASASDVPRDLEVVAATPTSLLISWRFPAYRGVDSYRITYGETGGNSPVQEFTVPSSVSSATISGLKPGVDYTITVYAVTWCSFYYCHSRPTSINYRTEIDKPSQGS
Q: Which results are given for B3?
A: fold higher affinity at pH 7.4 compared to pH 5.5 [4]: 10 fold; Kd [5]: 5.7 nM; fold higher binding affinity than clone 2.2.12 [5]: ~23 fold; Kd [6]: 0.51 nM; fold higher binding affinity than clone 2.2.12 [6]: ~25 fold
